Test results reported in patent US20140099294.

Molecular target: T1, GST-rat SV2C(454-579), GST-tagged recombinant intra-luminal fragment of SV2C, rat, Q9Z2I6 454-579
T1 sequence: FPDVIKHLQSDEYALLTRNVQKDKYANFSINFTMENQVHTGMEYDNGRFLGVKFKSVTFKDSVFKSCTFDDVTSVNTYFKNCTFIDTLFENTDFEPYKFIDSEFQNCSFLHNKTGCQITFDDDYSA

In the case of “rE (recombinant BoNT/E toxin in double chain form)”, the result is reported as “no binding (tested: 100 nM)”.
